From paper PMC12754628
For at least one entry, the source does not settle the construct or the ends of the probe.

Molecular target: T1, CcpA (Staphylococcus aureus USA300) (UniProt P99175)
T1 sequence: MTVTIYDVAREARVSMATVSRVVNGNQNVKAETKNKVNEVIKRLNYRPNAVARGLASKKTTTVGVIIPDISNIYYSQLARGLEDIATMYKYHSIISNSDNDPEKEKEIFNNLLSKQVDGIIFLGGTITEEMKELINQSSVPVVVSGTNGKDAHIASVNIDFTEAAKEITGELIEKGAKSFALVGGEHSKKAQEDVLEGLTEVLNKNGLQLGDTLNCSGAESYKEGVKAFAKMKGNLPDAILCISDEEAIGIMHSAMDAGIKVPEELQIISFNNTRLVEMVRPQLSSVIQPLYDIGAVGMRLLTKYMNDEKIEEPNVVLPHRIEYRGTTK
Test: competition with a labelled probe
Conditions: 10-fold unlabeled (500 pmol) against biotin-Pcrt; recombinant protein; residues 1-329; protein details: His6 (pET28a); label: unlabeled as competitor; probe letters rebuilt from the primers and the genome

“GTATTTAATATTTTAACATAAAAAAATTTACAGTTAAGAATAAAAAACGACTAGTTAAGAAAAATTGGAAAATAAATGCTTTTAGCATGTTTTAATATAACTAGATCACAGAGATGTGATGGAAAATAGTTGATGAGTTGTTTAATTTTAAGAATTTTTATCTTAATTAAGGAAGGAGTGATTTCAATGGCACAAGATATCATTTCAACAATCGGTGACTTAGTAAAATGGATTATCGACACAGTGAACAAATTCACTAA (double strand) [Pagr2]”: binds.
